Columns and labels:
[1] = target: HIV-1 RT wild type (WT) (Human immunodeficiency virus type 1 group M subtype B, UniProt P04585); assay: Reverse Transcriptase (RT) assay, wild type enzyme; assay type: biochemical; conditions: read-out: IC50 WT RT
Source text: (§1) Among the enzymes for which Human Immunodeficiency Virus (HIV-1) encodes is a reverse transcriptase (1), so-named because it transcribes a DNA copy from an RNA template. This activity can be quantitatively measured in a cell-free enzyme assay, which has been previously described (2), and is based upon the observation that reverse transcriptase is able to use a synthetic template poly r(C) primed with oligo d(G) to transcribe a radio-labelled, acid-precipitable DNA strand utilising ^3H-dGTP as a substrate. The assay described below utilises the wild type (WT) enzyme, which is the predominant form of the enzyme observed with patients infected with HIV-1. Utilisation of mutant RT enzymes (for example, Y181C, prepared by site-directed mutagenesis in which the tyrosine residue at codon 181 has been replaced by a cysteine residue, or the mutants K103N, V106A and Y188C) and analogous assay conditions allows compounds to be evaluated for their effectiveness at inhibiting the mutant enzymes.
(§2) The HIV-1 RT expression clone, pKRT2, was obtained from Yale University (3). An overnight culture, grown in 2×YT medium (37° C., 225 rpm) (4), supplemented with 100 μg/mL ampicillin for positive selection was used to inoculate the 2×YT medium. The culture was incubated (37° C., 225 rpm) until it reached an OD600 of 0.6-0.9. […]

[2] = test system: HIV replication in T-lymphocytes, virus coding for wild type enzyme; assay: ELISA (p24) assay for activity in cell culture, wild type virus; assay type: cell-based; conditions: read-out: EC50 WT RT
Protocol: (§3) ELISA Assay for Assessment of Activity in Cell Culture
(§4) Compounds of the invention were tested for their ability to inhibit HIV replication in cell culture. Viruses coding for Wild type and mutant enzymes were used. T-lymphocytes were infected with the virus, infected cells were incubated in the presence of varying amounts of compounds of the invention, and an ELISA assay for the viral protein p24 was used to quantify viral replication. Table 9 lists the results as EC50 (nM).

[3] = test system: HIV replication in T-lymphocytes, virus coding for mutant enzyme K103N/Y181C; assay: ELISA (p24) assay for activity in cell culture, mutant virus; assay type: cell-based; conditions: read-out: EC50 K103N/Y181C
Protocol: as §3, §4

[4] = target: HIV-1 RT double mutant K103N/Y181C (Human immunodeficiency virus type 1 group M subtype B, UniProt P04585, K690N/Y768C); assay: Reverse Transcriptase (RT) assay, double mutant enzyme; assay type: biochemical; conditions: read-out: IC50 K103N/Y181C
Source text: as §1, §2

CCN1c2ncc(CCOc3cccc4c3CCS(=O)(=O)N4CCC(C)(C)C(=O)O)cc2C(=O)N(C)c2cccnc21
< 100 nM: IC50 [1] | EC50 [2] | EC50 [3] | IC50 [4]
